Results deposited as PubChem BioAssay AID624099 (ICCB-Longwood, 2012)
The deposit covers about 21,000 reagents; this is a random part of them. Of all reagents, 497 (2.4%) got an active call. 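Higher z means weaker E2 silencing; only reporter increases were scored, and knock-downs that hurt cell survival may mask genuine repressor factors.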 A number with no mark means an inactive call.

Aim: 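Knock-downs relieving repression by E2 of an HPV18 LCR luciferase reporter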 (primary screen)
Cells: human C33A cervical carcinoma cells (HPV-negative) stably expressing BPV1 E2 and an HPV18 LCR luciferase reporter
Reagent: siRNA pool against human genes, 40 nM
Duration: 72 h
Measurement: 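HPV18 LCR reporter light per well, converted to plate-wise z-scores that exclude control wells, and averaged over triplicate plates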
Reading the numbers: mean z-score and z-score: higher = stronger reporter signal, weaker E2 silencing
Active means: 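Hit if mean z-score reaches 2 and two or more of three replicate z-scores also reach 2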

B3GALT1 showed mean z-score -1.08; z-score, replicate A = -1.22; z-score, replicate B = -0.97; z-score, replicate C = -1.06. With knock-down of MIR646HG the results were mean z-score -0.95; z-score, replicate A = -0.55; z-score, replicate B = -1.44; z-score, replicate C = -0.85. Against CASKIN1, the entry reads mean z-score -0.98; z-score, replicate A = -0.98; z-score, replicate B = -0.91; z-score, replicate C = -1.05. After knock-down of RBFOX2, the record shows mean z-score 1.18; z-score, replicate A = 1.27; z-score, replicate B = 1.17; z-score, replicate C = 1.1. Against SDAD1, the values are mean z-score -0.76; z-score, replicate A = -1.16; z-score, replicate B = -1.16; z-score, replicate C = 0.02. Against ODAD3 the deposit lists mean z-score 0.44; z-score, replicate A = 0.64; z-score, replicate B = 0.25; z-score, replicate C = 0.44.

CLN6 scored mean z-score -0.56; z-score, replicate A = -0.52; z-score, replicate B = -0.68; z-score, replicate C = -0.47. For BMP2KL, the entry reads mean z-score -0.7; z-score, replicate A = -0.74; z-score, replicate B = -0.96; z-score, replicate C = -0.39. SLC26A7 showed mean z-score 0.91; z-score, replicate A = 0.82; z-score, replicate B = 0.72; z-score, replicate C = 1.2. After knock-down of DLST, the screen gave mean z-score 0.78; z-score, replicate A = 1.16; z-score, replicate B = 0.79; z-score, replicate C = 0.39. For ARB2BP, the values are mean z-score -0.61; z-score, replicate A = -0.77; z-score, replicate B = -0.78; z-score, replicate C = -0.28. For CDK11B, the entry reads mean z-score -0.62; z-score, replicate A = -0.78; z-score, replicate B = -0.82; z-score, replicate C = -0.25.

After knock-down of CALM1, the screen gave mean z-score -0.05; z-score, replicate A = -0.53; z-score, replicate B = -0.38; z-score, replicate C = 0.77. After knock-down of CYP2C18, the record shows mean z-score 0.38; z-score, replicate A = 0.55; z-score, replicate B = 0.61; z-score, replicate C = -0.02. PCDHGA4 scored mean z-score 0.82; z-score, replicate A = 0.3; z-score, replicate B = 1.15; z-score, replicate C = 1.01. Knock-down of AGPAT5 came out at: mean z-score -0.12; z-score, replicate A = -0.29; z-score, replicate B = -0.23; z-score, replicate C = 0.16. After knock-down of TBC1D2, the screen gave mean z-score -0.14; z-score, replicate A = -0.32; z-score, replicate B = 0.25; z-score, replicate C = -0.36. After knock-down of SLC16A11 the results were mean z-score 1.54; z-score, replicate A = 1.34; z-score, replicate B = 1.34; z-score, replicate C = 1.93.

With knock-down of LOC392179 (retired record), the record shows mean z-score 0.61; z-score, replicate A = 0.44; z-score, replicate B = 0.97; z-score, replicate C = 0.44. Against PGK2, the entry reads mean z-score 0.03; z-score, replicate A = 0.07; z-score, replicate B = -0.31; z-score, replicate C = 0.33. With knock-down of PBOV1, the screen gave mean z-score -0.67; z-score, replicate A = -1.04; z-score, replicate B = -0.74; z-score, replicate C = -0.22. After knock-down of EMC7, the screen gave mean z-score 1.96; z-score, replicate A = 2.02; z-score, replicate B = 1.54; z-score, replicate C = 2.32. For CCDC124, the values are mean z-score -0.97; z-score, replicate A = -1.3; z-score, replicate B = -1.03; z-score, replicate C = -0.57. Against MT-ND4, the entry reads mean z-score -0.9; z-score, replicate A = -1.09; z-score, replicate B = -1.05; z-score, replicate C = -0.57.

After knock-down of LOC400388 (retired record), the record shows mean z-score -0.13; z-score, replicate A = -0.05; z-score, replicate B = -0.24; z-score, replicate C = -0.11. Against RWDD4, the values are mean z-score -1.74; z-score, replicate A = -1.27; z-score, replicate B = -2.07; z-score, replicate C = -1.89. Knock-down of PHF2 resulted in: mean z-score 1.53; z-score, replicate A = 2.04; z-score, replicate B = 1.43; z-score, replicate C = 1.1.

In a second layout: entries from further up.
{"Gene": "MIR646HG", "mean z-score": -0.95, "z-score, replicate A": -0.55, "z-score, replicate B": -1.44, "z-score, replicate C": -0.85}
{"Gene": "CASKIN1", "mean z-score": -0.98, "z-score, replicate A": -0.98, "z-score, replicate B": -0.91, "z-score, replicate C": -1.05}
{"Gene": "RBFOX2", "mean z-score": 1.18, "z-score, replicate A": 1.27, "z-score, replicate B": 1.17, "z-score, replicate C": 1.1}
